In PubChem BioAssay AID2629 (Broad Institute, 2010):
The entries are a selection whose mix differs from that of the whole data set. Activity calls are given as the source filed them. No stated cut-off is given here; in the data, active means inhibition mostly above about 10% (no sharp cut-off); inactive means mostly below about 6.7%.

Protein sequences, listed by entry. Tags and fused reporters are not part of them.
UniProt Q9QR71, whole entry: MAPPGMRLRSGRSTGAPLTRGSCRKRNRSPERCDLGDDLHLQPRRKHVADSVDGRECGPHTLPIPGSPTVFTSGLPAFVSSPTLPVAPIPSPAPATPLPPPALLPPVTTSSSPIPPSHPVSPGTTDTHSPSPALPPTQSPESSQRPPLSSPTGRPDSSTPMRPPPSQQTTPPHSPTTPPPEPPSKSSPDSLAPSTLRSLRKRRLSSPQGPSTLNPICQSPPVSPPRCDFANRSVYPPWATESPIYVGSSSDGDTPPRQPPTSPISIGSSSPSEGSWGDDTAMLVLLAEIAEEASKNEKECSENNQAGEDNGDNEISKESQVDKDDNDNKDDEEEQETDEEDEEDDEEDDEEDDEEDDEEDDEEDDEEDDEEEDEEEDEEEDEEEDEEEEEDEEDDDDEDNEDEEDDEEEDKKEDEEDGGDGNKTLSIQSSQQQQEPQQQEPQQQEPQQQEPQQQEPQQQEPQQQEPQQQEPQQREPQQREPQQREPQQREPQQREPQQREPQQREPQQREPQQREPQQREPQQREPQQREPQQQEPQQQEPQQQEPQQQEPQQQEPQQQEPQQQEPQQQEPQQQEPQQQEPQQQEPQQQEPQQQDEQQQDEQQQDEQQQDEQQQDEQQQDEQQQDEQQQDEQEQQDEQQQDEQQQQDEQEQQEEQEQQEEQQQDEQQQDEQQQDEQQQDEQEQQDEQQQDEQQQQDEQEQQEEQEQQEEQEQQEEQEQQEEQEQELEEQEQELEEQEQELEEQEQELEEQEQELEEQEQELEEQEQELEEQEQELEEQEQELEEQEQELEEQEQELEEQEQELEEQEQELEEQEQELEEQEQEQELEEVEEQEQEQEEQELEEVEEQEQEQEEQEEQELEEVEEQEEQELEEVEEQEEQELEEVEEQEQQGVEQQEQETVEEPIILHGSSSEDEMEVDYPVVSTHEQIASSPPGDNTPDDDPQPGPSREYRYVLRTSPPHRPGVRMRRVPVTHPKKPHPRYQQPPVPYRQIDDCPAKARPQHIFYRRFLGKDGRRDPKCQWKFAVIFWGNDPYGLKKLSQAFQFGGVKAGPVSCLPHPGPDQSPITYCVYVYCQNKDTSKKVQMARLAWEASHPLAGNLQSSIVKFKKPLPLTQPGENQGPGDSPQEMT

Target: Protein LANA1 (Human herpesvirus 8 type P (isolate GK18)) (UniProt Q9QR71)
Test: blockers of LANA interaction with H2A/H2B – biochemical, FP readout, HTS, primary screen (AID 2629)
Conditions: cell-free LANA-H2A/H2B peptide, fluorescence polarization; hits give high values; concentration not given here

Structure (SMILES) | inhibition
Oc1ccccc1CNc1ccccn1 | inactive: 1.08%
O=C(NC(Sc1ccncn1)C(Cl)(Cl)Cl)c1ccccc1 (stereo not given) | inactive: -4.49%
Cc1c2non([O-])c-2c(C)[n+](=O)[n+]1[O-] | inactive: -1.8%
Nc1cc(N)c2nonc2c1[N+](=O)[O-] | inactive: -4.61%
Cc1c(NP(C)(=O)Oc2ccc(C(C)C)cc2)c(=O)n(-c2ccccc2)n1C (stereo not given) | inactive: 1.37%
O=[N+]([O-])c1cc([N+](=O)[O-])c(Nc2ccccn2)c([N+](=O)[O-])c1 | inactive: 5.11%
CC(C)CC(=O)NC(Sc1ccc(Cl)cc1)C(Cl)(Cl)Cl (stereo not given) | inactive: -4.12%
CCc1ccc(OP(C)(=O)O)cc1 | inactive: -1.11%
CP(=O)(Nc1ccccn1)Oc1ccccc1 (stereo not given) | inactive: -0.603%
COc1ccccc1OP(C)(=O)Nc1ccc(C)cc1C (stereo not given) | inactive: -2.77%
O=P(Nc1nc2ccc(Cl)cc2s1)(c1ccccc1)c1ccccc1 | inactive: -2.48%
Cc1cc(C)cc(OP(C)(=O)Nc2cccc(C(F)(F)F)c2)c1 (stereo not given) | inactive: 1.3%
CC(=O)Nc1ccc([As](=O)(O)O)cc1 | inactive: 2.64%
O=C(O)c1ccccc1[As](=O)(O)O | inactive: 0.643%
COc1ccc(OP(C)(=O)Nc2ccccc2Br)cc1 (stereo not given) | inactive: -0.905%
Cc1cc(SC(NC(=O)c2ccc(F)cc2)C(Cl)(Cl)Cl)ncn1 (stereo not given) | inactive: 0.824%
CCOP(=O)(Nc1ccccc1)OCC | inactive: 3.54%
COc1ccccc1OP(C)(=O)Nc1ccc(C)c(C)c1 (stereo not given) | inactive: 0.306%
CN(C(=O)Cc1ccc(Cl)c(Cl)c1)[C@H]1CCCC[C@@H]1N1CCCC1 | inactive: 3.6%
Cc1ccc(NP(=O)(Oc2ccccc2F)Oc2ccccc2F)nc1 | inactive: -0.148%
O=[N+]([O-])c1cc([N+](=O)[O-])c(CCN2CCOCC2)c([N+](=O)[O-])c1 | inactive: 2.76%
Cc1nc2ccc3ccccc3c2o1.O=[N+]([O-])c1cc([N+](=O)[O-])c(O)c([N+](=O)[O-])c1 | inactive: -0.445%
Nc1cccc2ccc([As](=O)(O)O)cc12 | inactive: 4.61%
CP(=O)(Nc1ccc(Cl)cc1Cl)Oc1ccccc1 (stereo not given) | inactive: -0.598%
CP(=O)(OCCOc1ccccc1)OCCOc1ccccc1 | inactive: 3.29%
CCN(N=Nc1nonc1N)c1nonc1N | inactive: 1.11%
Nc1ccc2c(ccc3cccnc32)n1.O=[N+]([O-])c1cc([N+](=O)[O-])c(O)c([N+](=O)[O-])c1 | inactive: -1.05%
CP(=O)(OC12CC3CC(CC(C3)C1)C2)OC12CC3CC(CC(C3)C1)C2 | inactive: 1.72%

Structure (SMILES) | inhibition
CCOC(=O)c1ccc(NP(C)(=O)Oc2ccc(Cl)cc2)cc1 (stereo not given) | inactive: -6.65%
O=C(Nc1cc([As](=O)(O)O)ccc1O)c1ccccc1 | inactive: -1.25%
O=[N+]([O-])c1ncn(CCn2ncnc2[N+](=O)[O-])n1 | inactive: 0.788%
CC(C)(C)C(=O)NC(Sc1ccncn1)C(Cl)(Cl)Cl (stereo not given) | inactive: 1.86%
O=C(O)CNc1ccc([As](=O)(O)O)cc1 | inactive: 1.57%
O=[N+]([O-])c1cccc(NC2=NCC(CBr)S2)c1 (stereo not given) | inactive: 0.198%
CCN(CC)CC(O)COC(=O)C(O)(c1ccccc1)C1CCCCC1 (stereo not given) | inactive: 0.169%
COc1ccc(C2=NCC(CBr)S2)cc1 (stereo not given) | inactive: 0.817%
CP(=O)(Oc1ccccc1)N1CCOC1=O (stereo not given) | inactive: 0.403%
Cc1ccc(NP(=O)(Oc2ccccc2)Oc2ccccc2)nc1 | inactive: -7.07%
CCc1ccc(OP(C)(=O)Nc2cccnc2)cc1 (stereo not given) | inactive: 3.46%
O=[N+]([O-])c1cc([N+](=O)[O-])c(CCNc2ccccc2)c([N+](=O)[O-])c1 | inactive: -0.36%
CCc1nc2c(n1)c1c(non1O)c1c2no[n+]1[O-] | inactive: -1.84%
CC(=O)N1C2C3N(C(C)=O)C1C1N(C(C)=O)C(C(N1C(C)=O)N3C(C)=O)N2C(C)=O | inactive: 1.85%
O=[N+]([O-])c1cccc2n[nH]nc12 | inactive: 3.43%
COc1ccccc1OP(C)(=O)Nc1c(C)n(C)n(-c2ccccc2)c1=O (stereo not given) | inactive: -0.158%
O=C(OCCCN1CCCC1)C(O)(c1ccccc1)C1CCCCC1 (stereo not given) | inactive: -2.76%
CCN(/C(=N/P(=O)(N1CCOCC1)N1CCOCC1)N1CCOCC1)c1ccc(OC)cc1 | inactive: 6.48%
CP(=O)(Nc1ccc(Cl)cc1)Oc1ccc(F)cc1 (stereo not given) | inactive: 1.93%
COc1ccccc1OP(C)(=O)Nc1ccccc1Br (stereo not given) | inactive: -2.98%
Nc1ccc([As](=O)(O)c2ccc(N)cc2)cc1 | inactive: 13.2%
CC(C)(C)c1ccc(OP(C)(=O)O)cc1 | inactive: -0.425%
C[N+]1=C2C=CC=CC=C2SC12C([N+](=O)[O-])=CC([N+](=O)[O-])=C[C-]2[N+](=O)[O-] (stereo not given) | inactive: -0.652%
CC1CCN(C(=O)Oc2c(Cl)cc(Cl)c3cccnc23)CC1 | inactive: -0.27%
CC(C)=N/N=C(\N)N[N+](=O)[O-] | inactive: 0.0112%
CN(C)C(=O)c1c([N+](=O)[O-])cc([N+](=O)[O-])cc1[N+](=O)[O-] | inactive: -2.02%
CN(C)C(=O)OCCc1n(C)cc[n+]1C | inactive: 1.35%
